Reference: PubChem BioAssay AID504761 (Drosophila RNAi Screening Center, 2011)

Assay: 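Fly genes whose silencing reduces dengue virus type 2 infection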 (primary screen)
System: D.Mel-2 cells from Drosophila
Reagent: long dsRNA against Drosophila genes
Challenge: infection with dengue virus type 2; dose and infection time not stated
Measured: 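Per well on two replicate plates, imaging gave the percent of cells positive for viral envelope protein, ranked by infection, and a nuclear count of cells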
Scale: infection score: higher = more virus-infected cells; cell count: higher = more cells in the well
Hit rule: 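Low infection ranks in the two replicates (chance level up to 0.065) followed by a retest with a 1.5-fold or larger significant decrease, p below 0.05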
Meaning of the calls: active = confirmed: knock-down lowers infection; inactive = not picked or not confirmed
The screen tested about 22,000 reagents; below is an unselected part of those with a known target gene and a result. Over the whole deposit, 116 (0.52%) are marked active. 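Calls depend on retest data that are not deposited; infection was ranked per plate without normalising between plates; the unit of the infection score is not given.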 Raw values are not corrected between plates. Reagents against one gene are numbered here. Not given: the amount of reagent, the time to read-out.

| target | dsRNA no. | infection score, replicate 1 | infection score, replicate 2 | cell count, replicate 1 | cell count, replicate 2 | activity call |
| --- | --- | --- | --- | --- | --- | --- |
| CG12171 | 1 | 5.43 | 3.15 | 6480 | 6311 | inactive |
| CG12171 | 2 | 3.64 | 5.97 | 6757 | 6736 | inactive |
| CG31301 | 1 | 11.7 | 26.9 | 5673 | 3024 | inactive |
| CG3603 | 1 | 2.31 | 0.53 | 5706 | 6172 | inactive |
| CG13334 | 1 | 18 | 12.2 | 6124 | 5755 | inactive |
| Ykt6 (YKT6 v-SNARE) | 1 | 3.18 | – | 5975 | 131 | inactive |
| Ykt6 (YKT6 v-SNARE) | 2 | 16.4 | 6.89 | 5796 | 5707 | inactive |
| Gr22a (Gustatory receptor 22a) | 1 | 1.72 | 16.8 | 5872 | 5084 | inactive |
| Gr22a (Gustatory receptor 22a) | 2 | 11.2 | 11.2 | 7141 | 6459 | inactive |
| Syt1 (Synaptotagmin 1) | 1 | 1.08 | 0.84 | 6227 | 6100 | inactive |
| Syt1 (Synaptotagmin 1) | 2 | 2.85 | 2.84 | 6146 | 6688 | inactive |
| Syt1 (Synaptotagmin 1) | 3 | 4.52 | 1.7 | 6131 | 6065 | inactive |
| Syt1 (Synaptotagmin 1) | 4 | 10.4 | 2.24 | 5744 | 6379 | inactive |
| Syt1 (Synaptotagmin 1) | 5 | 3.8 | 1.93 | 6371 | 6329 | inactive |
| Syt1 (Synaptotagmin 1) | 6 | 7.22 | 7.52 | 6289 | 6556 | inactive |
| CycC (Cyclin C) | 1 | 12.4 | 12.5 | 4726 | 5375 | inactive |
| CG10481 | 1 | 19.1 | 6.54 | 4104 | 6577 | inactive |
| Ac76E (Adenylyl cyclase 76E) | 1 | 1.12 | 0.82 | 5644 | 5846 | inactive |
| Ac76E (Adenylyl cyclase 76E) | 2 | 10.2 | 23.5 | 6144 | 4542 | inactive |
| O-fut2 (O-fucosyltransferase 2) | 1 | 1.23 | 0.89 | 5953 | 6150 | inactive |
| TotA (Turandot A) | 1 | 3.68 | 2.65 | 6220 | 5729 | inactive |
| CG32373 | 1 | 1.56 | 0.44 | 6008 | 6145 | inactive |
| CG31415 | 1 | 0.66 | 1.28 | 6032 | 6865 | inactive |
| CAH4 (Carbonic anhydrase 4) | 1 | 0.58 | 0.73 | 6507 | 6943 | inactive |
| CG13775 | 1 | 2.55 | 14.1 | 6431 | 6171 | inactive |
| CG13775 | 2 | 7.47 | – | 1460 | 275 | inactive |
| tei (teiresias) | 1 | 16.8 | 7.08 | 6253 | 6257 | inactive |
| tei (teiresias) | 2 | 4.78 | 0.4 | 5986 | 6059 | inactive |
| CG6429 | 1 | 18.9 | 12.4 | 6017 | 6963 | inactive |
| CR13656 (pseudo) | 1 | 0.03 | 0.08 | 6068 | 6266 | inactive |
| CR13656 (pseudo) | 2 | 1.67 | 6.65 | 6299 | 6360 | inactive |
| CG31288 | 1 | 8.93 | 1.69 | 5498 | 7060 | inactive |
| CG31288 | 2 | 14.6 | 26.5 | 6444 | 5116 | inactive |
| CG6357 | 1 | 17 | 8.04 | 5448 | 3034 | inactive |
| CG15046 | 1 | 11.8 | 4.48 | 6153 | 6536 | inactive |
| CG8852 | 1 | 7.49 | 1.54 | 6504 | 6094 | inactive |
| CG8852 | 2 | 1.9 | 2.68 | 6115 | 5789 | inactive |
| ProRS-m (Prolyl-tRNA synthetase, mitochondrial) | 1 | 5.3 | 23.4 | 5717 | 5581 | inactive |
| ProRS-m (Prolyl-tRNA synthetase, mitochondrial) | 2 | 6.95 | 4.4 | 6187 | 6075 | inactive |
| hng2 (hinge2) | 1 | 5 | 0.83 | 6060 | 6766 | inactive |

6 entries from above, set out differently.
CG15046 → infection score, replicate 1: 11.8; infection score, replicate 2: 4.48; cell count, replicate 1: 6153; cell count, replicate 2: 6536; activity call: inactive
CG8852 #1 → infection score, replicate 1: 7.49; infection score, replicate 2: 1.54; cell count, replicate 1: 6504; cell count, replicate 2: 6094; activity call: inactive
CG8852 #2 → infection score, replicate 1: 1.9; infection score, replicate 2: 2.68; cell count, replicate 1: 6115; cell count, replicate 2: 5789; activity call: inactive
ProRS-m (Prolyl-tRNA synthetase, mitochondrial) #1 → infection score, replicate 1: 5.3; infection score, replicate 2: 23.4; cell count, replicate 1: 5717; cell count, replicate 2: 5581; activity call: inactive
ProRS-m (Prolyl-tRNA synthetase, mitochondrial) #2 → infection score, replicate 1: 6.95; infection score, replicate 2: 4.4; cell count, replicate 1: 6187; cell count, replicate 2: 6075; activity call: inactive
hng2 (hinge2) → infection score, replicate 1: 5; infection score, replicate 2: 0.83; cell count, replicate 1: 6060; cell count, replicate 2: 6766; activity call: inactive

The results go on:
| target | dsRNA no. | infection score, replicate 1 | infection score, replicate 2 | cell count, replicate 1 | cell count, replicate 2 | activity call |
| --- | --- | --- | --- | --- | --- | --- |
| CG7728 | 1 | 10.4 | 10.6 | 5750 | 4764 | inactive |
| CG7728 | 2 | 1.01 | 8.08 | 396 | 1176 | inactive |
| prd (paired) | 1 | 9.66 | 7.41 | 6348 | 5994 | inactive |
| Vha68-1 (Vacuolar H[+] ATPase 68kD subunit 1) | 1 | 18 | 3.68 | 5989 | 1223 | inactive |
| CG31174 | 1 | 0.21 | 0.51 | 6557 | 6047 | inactive |
| CG42269 | 1 | 0.77 | 2.12 | 6123 | 5856 | inactive |
| CG42269 | 2 | 5.55 | 4.2 | 6159 | 5812 | inactive |
| CG42269 | 3 | 1.61 | 14.4 | 6256 | 5043 | inactive |
| CG42269 | 4 | 5.74 | 3.14 | 6426 | 5891 | inactive |
| CG30379 | 1 | 3.06 | 0.33 | 6569 | 6136 | inactive |
| CG13171 | 1 | 16.8 | 30.1 | 5870 | 6451 | inactive |
| CG1582 | 1 | 1.95 | 8 | 6155 | 6301 | inactive |
| Shmt (Serine hydroxymethyl transferase) | 1 | 3.41 | 7.09 | 5980 | 6459 | inactive |
| senju | 1 | 2.16 | 1.94 | 1483 | 6790 | inactive |
| CG30432 | 1 | 2.78 | 2.53 | 6336 | 6010 | inactive |
| AlkB | 1 | 0.77 | 1.63 | 6405 | 6441 | inactive |
| CG5174 | 1 | 10.2 | 9.52 | 6291 | 6604 | inactive |
| CG5174 | 2 | 9.03 | 3.26 | 6110 | 6196 | inactive |
| Tbc1d15-17 (TBC1 domain family member 15/17) | 1 | 4.33 | 4.53 | 5975 | 5826 | inactive |
| Tbc1d15-17 (TBC1 domain family member 15/17) | 2 | 20.1 | 27.7 | 6219 | 5809 | inactive |
| rnh1 (ribonuclease H1) | 1 | 6.83 | – | 6017 | 418 | inactive |
| Ric (Ras-related protein interacting with calmodulin) | 1 | 4.56 | 7.78 | 6892 | 6325 | inactive |
| Ric (Ras-related protein interacting with calmodulin) | 2 | 0.59 | 9.3 | 6282 | 5948 | inactive |
| mrj | 1 | 3.12 | 2.91 | 6251 | 6278 | inactive |
| mrj | 2 | 3.77 | 0.69 | 5841 | 6369 | inactive |
| CG15601 | 1 | 15.7 | 5.93 | 5478 | 725 | inactive |
| Or45a (Odorant receptor 45a) | 1 | 3.55 | 8.22 | 6623 | 6021 | inactive |
| Or45a (Odorant receptor 45a) | 2 | 23 | 12.7 | 6761 | 7200 | inactive |
| HP1e (Heterochromatin Protein 1e) | 1 | 3.15 | 7.83 | 6507 | 6820 | inactive |
| COX6AL (Cytochrome c oxidase subunit 6A-like) | 1 | 4.54 | 4.43 | 6392 | 6659 | inactive |
| spz6 (spatzle 6) | 1 | 2.89 | 16 | 6266 | 4759 | inactive |
| tpr (tracheal-prostasin) | 1 | 8.86 | 29.7 | 6229 | 5482 | inactive |
| tpr (tracheal-prostasin) | 2 | 7.73 | 22.4 | 5977 | 6594 | inactive |
| Art8 (Arginine methyltransferase 8) | 1 | 1.49 | 5.81 | 6387 | 6660 | inactive |
